Laboratory results reported in paper PMC6114082, “Synthesis of aminophenylhydroxamate and aminobenzylhydroxamate derivatives and in vitro screening for antiparasitic and histone deacetylase inhibitory activity” (International Journal for Parasitology: Drugs and Drug …, 2018).

Tested on: HeLa nuclear extract (HDAC 1, 2, 6, and 8 predominant)
Assay: Fluorometric HDAC assay, HeLa nuclear extract
Type: biochemical
Conditions: fold relative to SAHA (SAHA = 1)
Protocol: The HDACi effect against HeLa nuclear extracts and recombinant proteins were measured using a fluorometric HDAC assay kit (Active Motif, Belgium) according to the manufacturer's instructions. […] A negative control containing trichostatin A at a final concentration of 2 μM was analyzed for each independent experiment.

## Cc1nc(-c2ccc(C(=O)NCc3ccc(C(=O)NO)cc3)cc2)cs1 [Compound 360]
  HDACi HeLa Fold: 5,29

## O=C(NO)c1ccc(NC(=O)c2cccc(F)c2)cc1 [Compound 349, 4-(3-fluorobenzamido)-N-hydroxybenzamide]
  HDACi HeLa Fold: 3.31

## O=C(NO)c1ccc(CNS(=O)(=O)c2cccc(F)c2)cc1 [Compound 350, 4-(3-fluorobenzenesulfonamidomethyl)-N-hydroxybenzamide]
  HDACi HeLa Fold: 0.24

## O=C(NO)c1ccc(NS(=O)(=O)c2cccc(F)c2)cc1 [Compound 351, 4-(3-fluorobenzenesulfonamido)-N-hydroxybenzamide]
  HDACi HeLa Fold: 2.38

## COc1cccc(CC(=O)Nc2ccc(C(=O)NO)cc2)c1 [Compound 363, N-hydroxy-4-[2-(3-methoxyphenyl)acetamido]benzamide]
  HDACi HeLa Fold: 24.70

## COc1cccc(CC(=O)NCc2ccc(C(=O)NO)cc2)c1 [Compound 362, N-hydroxy-4-{[2-(3-methoxyphenyl)acetamido]methyl}benzamide]
  HDACi HeLa Fold: 4.05

## Cc1nc(-c2ccc(C(=O)Nc3ccc(C(=O)NO)cc3)cc2)cs1 [Compound 361]
  HDACi HeLa Fold: 1.15
